In publication PMC11109247 one finds stoichiometry N data, which are given here for one substance.

The test addresses NiVBD G ectodomain (Nipah virus Bangladesh attachment glycoprotein, residues 71-602), Strep-tagged (Nipah virus (Bangladesh strain)). Briefly: SDS-PAGE without reduction and boiling.

Several values for one entry are separate records, joined by “and”; a condition that tells them apart may be missing. Equal values may be shown once.

“NiVBD G ectodomain (Nipah virus Bangladesh attachment glycoprotein, residues 71-602), Strep-tagged (domain or fragment)”: the stoichiometry N (usually a count of units in the complex or per binding partner) is 4 and 2.
